Percent effect of library compounds

The values are deposited in ChEMBL (CHEMBL3988442, “University of Dundee, Small-Polar-MMV Screening Library” (2021)).

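Phenotypic screen: M. tuberculosis growth, glucose 7H9 medium, 3 days; the read-out is not stated. Compounds at 500 µM. Higher reads as more growth inhibition (inferred: compounds with an IC50 in retests scored well above the rest). Of about 18,000 compounds tested this way, about 1,400 (7.9%) reached 50% or more in at least one test.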

Values are the deposited “Percent Effect”, in %.
How 0% and 100% were set is not recorded. Most values in the screen are low, and negative values occur.
This is part of a subset picked to be rich in strong results.

NC(=O)N(Cc1cccs1)CC1CCCO1 (stereo not given) gave 7.295%.
COc1cc(C(=O)Nc2nnc[nH]2)cc(Cl)c1OC gave -0.4678%.
N#Cc1ccccc1OCC(=O)NC(=O)c1ccco1 gave 0.3732%.
CCC=C(C)C(=O)N1CCN(C(=O)c2cccs2)CC1 gave 37.72%.
CC(C)CNc1cc(CN(C)C)ccn1 gave 7.806%.
CN(C)C(=O)N1CCN(CC2CCCCO2)CC1 (stereo not given) gave 11.11%.
Cc1ncn(CC(=O)N2CCCC(O)(CO)CC2)c1C (stereo not given) gave -2.178%.
CCCNC(=O)c1ccc2c(c1)CC(=O)N2C gave 12.65%.
CSc1ccc2c(c1)CCN(C(=O)C1CCNC1)C2 (stereo not given) gave 72.69%.
CCN(CCn1cccn1)C1CCN(C(C)=O)CC1 gave -0.05639%.
COc1ccc(S(N)(=O)=O)c(OC)c1OC gave -0.06459%.
CC(=O)Nc1nc(COc2ccc(C)cn2)cs1 gave 82.95%.
COc1cccc(-n2nnc(C(=O)NC3CC3)c2C)c1 gave 65.87%.
O=C(Cc1cccc(O)c1)NCCN1CC=CC1 gave 13.26%.
COCC(=O)N1CCN(CC2CCCCC2)CC1 gave 10.01%.
CC1(C2CCCN(C(=O)c3ccncc3)C2)OCCO1 (stereo not given) gave 0.02987%.
CC(=O)NCc1ccc(C(C)=O)s1 gave 17.5%.
CC(CNC(=O)c1cnccn1)N1CCCC1 (stereo not given) gave 11.14%.
NC1CCN(c2ncc(C(F)(F)F)cc2Cl)C1 (stereo not given) gave 84.57%.
CC(C)[C@H]1CN(CCC(=O)N(C)C)C[C@@H]1N gave 3.951%.
CCOC(=O)c1csc(NC(=O)c2cnccn2)n1 gave -8.767%.
CCc1ccc(CN(C)C(=O)CCNC(C)=O)nc1 gave -5.665%.
CN1CCc2nc(NC(=O)CC(C)(C)C)sc2C1 gave 63.64%.
O=S1(=O)CCC(CNc2ccnc3ccc(Cl)cc23)C1 (stereo not given) gave -37.55%.
N#Cc1ccc(OCc2cc(=O)n3ccsc3n2)cc1 gave 8.816%.
CCn1cnnc1CNC(=O)C1CCC(=O)N1 (stereo not given) gave 5.739%.
CCO[C@H]1CN(Cc2ccccc2C#N)C[C@@H]1O gave 10.8%.
CC(=O)NCCC(=O)N(C)Cc1noc(C(C)C)n1 gave 10.64%.
CC(C)CCNC(=O)CCCC(=O)Nc1ccccn1 gave -7.272%.
CCOC(=O)c1cccnc1C gave 2.936%.
CN1CCCC(NC(=O)NCCc2ccncc2)C1 (stereo not given) gave 7.77%.
CCc1nsc(N2CCN(CC(O)COC)CC2)n1 (stereo not given) gave 12.69%.
OCC1CCN(CCc2ccccc2)C1 (stereo not given) gave -3.68%.
COCc1noc(CNc2cc(C)nc(N)n2)n1 gave -1.077%.
Cc1ccc(S(=O)(=O)N2CCOCC2)c2cccnc12 gave 0.5797%.
CCNS(=O)(=O)C1CCN(Cc2cccnc2C)C1 (stereo not given) gave 19.84%.
NCC1Cc2ccccc21 (stereo not given) gave 72.52%.
CS(=O)(=O)N1CCN(c2cccc(O)c2)CC1 gave 12.12%.
CCCNC(=O)CN1CCC(c2nc(C)no2)CC1 gave 7.015%.
Cn1nccc1C1COCCN1 (stereo not given) gave -0.239%.
COc1cccc(S(=O)(=O)CCN2CCC(O)CC2)c1 gave 64.67%.
CN(C)S(=O)(=O)CCCS(=O)(=O)Cc1cccc(F)c1 gave 4.11%.
Cc1cc(C)c(CN2CCOC(CN)C2)cc1C (stereo not given) gave 79.41%.
O=C(c1ccc(Br)o1)N1CCNCC1 gave 6.405%.
OCC1(O)CCCN(CCn2cc(Cl)cn2)CC1 (stereo not given) gave -2.672%.